Measured values from several laboratories, pooled; numbers as filed in NIAID ChemDB.

ICn is the concentration giving n% inhibition. Inhibition is in % at the dose shown (toxicity tests: loss of growth or viability). Lines come from different laboratories, so protocols vary. Fold resistance has wild type as its base. A number after MIC or MFC names an inhibition level or a share of isolates. ECn is the concentration giving n% inhibition of infection, replication or growth. Blank or dashed fields: not listed here.

{"smiles": "NS(=O)(=O)c1ccc(CNc2nnc(NC(=O)c3ccc(C(F)(F)F)cc3)s2)cc1", "test": "target", "organism": "Human cytomegalovirus", "endpoint": "IC50", "target": "Polymerase", "value": ">25 µM"}
{"smiles": "CC[C@H]1C(=O)Nc2ccc(F)cc2N1C(=O)OC(C)C", "changes": "RT-N137Y", "test": "target", "organism": "HIV", "read by": "nucleotide incorporation / radiometric", "endpoint": "fold resistance", "target": "Reverse transcriptase", "value": "0.73"}
{"smiles": "CO[C@@H]1[C@H](OC(=O)NC(=O)CCl)CC[C@]2(CO2)[C@H]1[C@@]1(C)O[C@@H]1CC=C(C)C", "test": "culture", "dose": "0.00001 µg/mL", "organism": "Encephalitozoon intestinalis", "cells": "RK-13", "endpoint": "inhibition", "value": "39.4%"}
{"smiles": "Cc1cn([C@H]2C=C[C@@H](COP(=O)(O)OP(=O)(O)OP(=O)(O)O)O2)c(=O)[nH]c1=O", "changes": "RT-N137Y", "test": "target", "organism": "HIV", "read by": "nucleotide incorporation / radiometric", "endpoint": "fold resistance", "target": "Reverse transcriptase", "value": "13.7"}
{"smiles": "COc1ccc2cc3[n+](cc2c1OC)CCc1cc2c(cc1-3)OCO2", "test": "culture", "dose": "0.001 µg/mL", "organism": "Encephalitozoon intestinalis", "cells": "RK-13", "endpoint": "inhibition", "value": "0%"}
{"smiles": "C#CC[C@@H](C(=O)N[C@H](/C=C/C(=O)OCC)C[C@@H]1CCNC1=O)n1cccc(NC(=O)c2cc(C)on2)c1=O", "test": "culture", "dose": "0.195 µM", "organism": "Rhinovirus", "cells": "H1-HELA", "read by": "cytopathic effect / XTT", "strain": "Serotype 13", "endpoint": "inhibition", "value": "90%"}
{"smiles": "O=C(Nc1nnc(NCc2cccc3ccccc23)s1)c1ccc([N+](=O)[O-])o1", "test": "target", "organism": "Human cytomegalovirus", "endpoint": "IC50", "target": "Polymerase", "value": "<25 µM"}
{"smiles": "CCCSc1ccc2nc(NC(=O)OC)[nH]c2c1", "test": "culture", "dose": "10 µg/mL", "organism": "Encephalitozoon intestinalis", "cells": "RK-13", "endpoint": "inhibition", "value": "88.2%"}
{"smiles": "O=C(Nc1nnc(NCc2cccc3ccccc23)s1)c1ccc2c(c1)C(=O)OC2=O", "test": "target", "organism": "Human cytomegalovirus", "endpoint": "IC50", "target": "Polymerase", "value": "<25 µM"}
{"smiles": "CO[P@](=O)(c1cc(C)cc(/C=C/C#N)c1)c1c(C(N)=O)[nH]c2ccc(Cl)c(F)c12", "test": "host protein", "organism": "Human", "endpoint": "IC50", "target": "DNA polymerase beta", "value": "≥422.2 µM"}
{"smiles": "CCOC(=O)Nc1nc(NC(=O)OCC)c2c(c1N)NC(C)C(c1ccccc1)=N2", "test": "culture", "dose": "0.1 µg/mL", "organism": "Encephalitozoon intestinalis", "cells": "RK-13", "endpoint": "inhibition", "value": "0%"}
{"smiles": "CC(C)(C)CNc1nnc(NC(=O)c2c(Cl)cccc2Cl)s1", "test": "target", "organism": "Human cytomegalovirus", "endpoint": "IC50", "target": "Polymerase", "value": ">25 µM"}
{"smiles": "CC1(C)[C@@H](O[C@H]2O[C@H](C(=O)O)[C@@H](O)[C@H](O)[C@H]2O[C@@H]2O[C@H](C(=O)O)[C@@H](O)[C@H](O)[C@H]2O)CC[C@]2(C)[C@H]3C(=O)C=C4[C@@H]5C[C@@](C)(C(=O)O)CC[C@]5(C)CC[C@@]4(C)[C@]3(C)CC[C@@H]12", "test": "culture", "organism": "Dengue virus", "cells": "VERO", "read by": "virus yield", "strain": "TYPE 4 (YUNH)", "endpoint": "EC50", "value": "<416 µg/mL"}
{"smiles": "CCO/N=C/c1ccc(OCCC2CCN(c3ccc(C)nn3)CC2)cc1", "test": "culture", "organism": "Rhinovirus", "cells": "KB", "read by": "neutral red", "strain": "K2207 (ICAM-1 receptor group 72)", "endpoint": "EC50", "value": "0.109 µM"}
{"smiles": "COc1cc(NCc2cnc3nc(N)nc(N)c3c2C)cc(OC)c1OC", "test": "culture", "dose": "0.01 µg/mL", "organism": "Encephalitozoon intestinalis", "cells": "RK-13", "endpoint": "inhibition", "value": "1%"}
{"smiles": "O=C(/C=C/c1ccccc1)Nc1nnc(NCCN2CCCC2)s1", "test": "target", "organism": "Human cytomegalovirus", "endpoint": "IC50", "target": "Polymerase", "value": ">25 µM"}
{"smiles": "Cc1cn([C@@H]2O[C@H](CO[Si](C)(C)C(C)(C)C)[C@@]3(OS(=O)(=O)C=C3N)[C@H]2O[Si](C)(C)C(C)(C)C)c(=O)[nH]c1=O", "changes": "RT-N137K", "test": "target", "organism": "HIV", "read by": "nucleotide incorporation / radiometric", "endpoint": "IC50", "target": "Reverse transcriptase", "value": "2.1 µM"}
{"smiles": "COc1cc(C[C@H](C)[C@H](C)Cc2ccc(O)c(O)c2)ccc1O", "test": "culture", "organism": "Candida albicans", "read by": "broth dilution", "strain": "CCC 128-2000", "endpoint": "MIC100", "value": "62.5 µg/mL"}
{"smiles": "O=C(Nc1nnc(NC2CCCCCC2)s1)c1c(Cl)cccc1Cl", "test": "target", "organism": "Human cytomegalovirus", "endpoint": "IC50", "target": "Polymerase", "value": ">25 µM"}

A second listing of 2 rows from above:

| smiles | changes | test | dose | organism | cells | read by | strain | endpoint | target | value |
|---|---|---|---|---|---|---|---|---|---|---|
| O=C(Nc1nnc(NCc2cccc3ccccc23)s1)c1ccc2c(c1)C(=O)OC2=O |  | target |  | Human cytomegalovirus |  |  |  | IC50 | Polymerase | <25 µM |
| CC[C@H]1C(=O)Nc2ccc(F)cc2N1C(=O)OC(C)C | RT-N137Y | target |  | HIV |  | nucleotide incorporation / radiometric |  | fold resistance | Reverse transcriptase | 0.73 |